What was measured:
[1] = biological target: membrane protein HA of recombinant human influenza virus A/WSN/33 (H1N1) (human influenza virus A/WSN/33 (H1N1)), P03454; test: cell-based or functional assay
[2] = biological target: membrane protein HA of human influenza virus A/Jiangxi/312/2005 (H3N2) (human influenza virus A/Jiangxi/312/2005 (H3N2)); test: cell-based or functional assay

Row | Binder | IC50, plaque inhibition on MDCK cells [1] [µM] | IC50, plaque inhibition on MDCK cells [2] [µM] | Inhibitory rate (%) of plaques, peptide at 100 µM [1] [%] | Inhibitory rate (%) of plaques, peptide at 200 µM [2] [%]
1 | KESTQKAIDGVTAAAANKVNSIIDK (modifications not checked) [mutant polypeptide HR1-2] | 110 | 112 | – | –
2 | RRIENLNKKMEDGFLDVWTY (modifications not checked) [polypeptide HR2A] | – | – | 42 | 51.4
3 | NAELLVLMENERTLDFHDSNVKN (modifications not checked) [polypeptide HR2B] | – | – | 43 | 15.2
4 | FHDSNVKNLYDKVRLQ (modifications not checked) [polypeptide HR2C] | – | – | 29.6 | 17.1
5 | KESTQKAIDGVTNKVNSIIDK (modifications not checked) [polypeptide HR1 derived from strain QH] | 11.1 | 16.4 | – | –
6 | KESTQKIIDGVTNKVNSIIDK (modifications not checked) [mutant polypeptide HR1-1] | 29.3 | 38.2 | – | –

Reference: US20100249021A1
